Measured values as given in patent publication US20180111913A1, “SUBSTITUTED BENZOFURAN DERIVATIVES AS NOVEL ANTIMYCOBACTERIAL AGENTS” (priority 2015, published 2018).

Protein sequences, listed by entry. Tags and fused reporters are not part of them. Residues count along the entry.
UniProt I6X8D2, 1451-1733 limits assumed: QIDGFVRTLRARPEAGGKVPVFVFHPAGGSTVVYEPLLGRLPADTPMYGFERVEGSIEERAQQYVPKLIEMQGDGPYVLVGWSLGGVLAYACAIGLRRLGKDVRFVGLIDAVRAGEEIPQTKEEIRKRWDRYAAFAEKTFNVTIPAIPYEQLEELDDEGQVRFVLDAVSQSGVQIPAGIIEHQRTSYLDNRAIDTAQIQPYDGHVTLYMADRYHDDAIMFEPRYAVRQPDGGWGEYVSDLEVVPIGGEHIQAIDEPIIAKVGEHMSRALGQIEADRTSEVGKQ

Biological target: Mtb Pks13-TE domain (wild-type) (Mycobacterium tuberculosis, UniProt I6X8D2)
Details: 20 μM 4-MUH

Row | SMILES | IC50 [µM]
1 | CNC(=O)c1c(-c2ccccc2)oc2ccc(O)c(CCN[C@@H](Cc3cnc[nH]3)C(N)=O)c12 | 1.6
2 | CCOC(=O)c1c(-c2ccccc2)oc2ccc(O)c(CCN3CCCC3CCO)c12 (centres unmarked) | 6.5
